Assay results published in ChEMBL document CHEMBL4431344, “Synthesis of potent and broad genotypically active NS5B HCV non-nucleoside inhibitors binding to the thumb domain allosteric site 2 of the viral polymerase” (Bioorg Med Chem Lett, 2016).

The chains behind the UniProt entries cited, without tags or fusion partners. Residues count along the entry.
UniProt Q9WMX2, 2420-3010 limits assumed: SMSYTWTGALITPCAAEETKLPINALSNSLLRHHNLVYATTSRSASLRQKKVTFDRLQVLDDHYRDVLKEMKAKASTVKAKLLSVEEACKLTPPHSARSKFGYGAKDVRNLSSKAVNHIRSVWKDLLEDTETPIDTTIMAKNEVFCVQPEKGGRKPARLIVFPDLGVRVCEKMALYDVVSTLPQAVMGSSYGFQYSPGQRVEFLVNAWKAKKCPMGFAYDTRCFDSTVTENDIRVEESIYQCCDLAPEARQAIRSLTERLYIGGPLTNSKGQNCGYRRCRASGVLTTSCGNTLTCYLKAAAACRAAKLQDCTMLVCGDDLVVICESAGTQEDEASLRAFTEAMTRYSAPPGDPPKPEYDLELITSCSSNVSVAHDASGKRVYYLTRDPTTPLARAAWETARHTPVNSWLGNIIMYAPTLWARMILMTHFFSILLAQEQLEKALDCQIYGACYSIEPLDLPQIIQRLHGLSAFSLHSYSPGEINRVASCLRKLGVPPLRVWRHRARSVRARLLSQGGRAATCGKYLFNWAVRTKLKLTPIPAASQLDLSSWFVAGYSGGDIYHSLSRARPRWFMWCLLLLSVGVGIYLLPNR
UniProt O39930, 1-591: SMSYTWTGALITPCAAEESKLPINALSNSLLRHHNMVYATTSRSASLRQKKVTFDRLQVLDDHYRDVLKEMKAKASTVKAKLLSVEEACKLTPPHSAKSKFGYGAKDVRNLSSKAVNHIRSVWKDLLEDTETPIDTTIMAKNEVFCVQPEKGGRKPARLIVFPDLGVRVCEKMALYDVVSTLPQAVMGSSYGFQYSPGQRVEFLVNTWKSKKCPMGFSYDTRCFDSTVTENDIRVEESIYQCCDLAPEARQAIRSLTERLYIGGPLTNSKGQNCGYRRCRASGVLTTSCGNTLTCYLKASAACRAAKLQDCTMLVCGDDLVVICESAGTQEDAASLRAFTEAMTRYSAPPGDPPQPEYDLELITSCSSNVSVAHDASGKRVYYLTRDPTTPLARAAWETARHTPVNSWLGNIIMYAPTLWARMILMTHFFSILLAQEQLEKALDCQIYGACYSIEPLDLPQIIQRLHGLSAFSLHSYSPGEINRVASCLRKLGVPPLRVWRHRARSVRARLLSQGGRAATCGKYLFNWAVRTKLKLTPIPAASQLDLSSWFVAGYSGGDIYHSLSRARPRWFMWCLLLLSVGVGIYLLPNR
UniProt Q81258, 2431-3021 limits assumed: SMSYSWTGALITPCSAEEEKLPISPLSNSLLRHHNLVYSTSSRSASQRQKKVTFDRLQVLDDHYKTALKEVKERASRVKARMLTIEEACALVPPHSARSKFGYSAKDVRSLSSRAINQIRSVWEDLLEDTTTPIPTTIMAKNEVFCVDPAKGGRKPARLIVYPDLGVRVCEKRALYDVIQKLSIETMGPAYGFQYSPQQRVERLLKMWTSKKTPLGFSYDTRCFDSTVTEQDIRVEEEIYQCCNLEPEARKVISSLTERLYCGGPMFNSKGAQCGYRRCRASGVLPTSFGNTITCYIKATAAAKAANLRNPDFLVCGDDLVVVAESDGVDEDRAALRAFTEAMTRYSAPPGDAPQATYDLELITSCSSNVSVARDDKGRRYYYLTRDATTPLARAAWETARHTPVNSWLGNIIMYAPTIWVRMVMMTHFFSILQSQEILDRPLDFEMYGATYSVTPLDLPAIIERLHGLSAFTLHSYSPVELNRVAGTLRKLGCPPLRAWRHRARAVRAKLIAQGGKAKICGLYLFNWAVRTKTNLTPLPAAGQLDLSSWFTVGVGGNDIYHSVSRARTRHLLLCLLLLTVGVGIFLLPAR

How the values were obtained:
[1] = system: Hepatitis C virus; experiment: Antiviral activity against HCV assessed as inhibition of viral RNA replication in replicon cells by luciferase reporter gene assay; type: functional, Hepacivirus hominis
[2] = target: Genome polyprotein (Hepatitis C virus genotype 1b (isolate Con1) (HCV), UniProt Q9WMX2); experiment: Inhibition of HCV genotype 1b Con1 NS5B RNA dependent RNA polymerase
[3] = target: T1, RNA-directed RNA polymerase (Hepacivirus hominis, UniProt O39930); experiment: Inhibition of HCV genotype 2a JFH NS5B RNA dependent RNA polymerase; design: species or system Hepatitis C virus subtype 2a
[4] = target: Genome polyprotein (Hepatitis C virus genotype 3a (isolate NZL1) (HCV), UniProt Q81258); experiment: Inhibition of HCV genotype 3a NZL1 NS5B RNA dependent RNA polymerase
[5] = target: T1, RNA-directed RNA polymerase; experiment: Inhibition of HCV genotype 4a1 NS5B RNA dependent RNA polymerase

Structure (SMILES) | EC50 [1] [µM] | IC50 [2] | IC50 [3] [µM] | IC50 [4] [µM] | IC50 [5] [µM]
COP(=O)(Nc1nc(-c2ccc(-c3cc4nccc(N)n4n3)cc2)sc1C(=O)O)c1ccc(C)cc1C (stereo not given) | 0.0008 | 0.018 µM | 0.337 | 0.16 | 0.0517
COP(=O)(Nc1nc(-c2ccc(-c3cc4nc(C)cc(N)n4n3)cc2)sc1C(=O)O)c1ccc(C)cc1C (stereo not given) | 0.0003 | 0.0143 µM | 0.272 | 0.119 | 0.0244
COP(=O)(Nc1nn(-c2ccc(-c3cc4nc(C)ccn4n3)cc2)cc1C(=O)O)c1ccc(C)cc1C (stereo not given) | 0.0056 | 0.0253 µM | 2.62 | 3.09 | 0.197
COP(=O)(Nc1nn(-c2ccc(-c3cc4ncccn4n3)cc2)cc1C(=O)O)c1ccc(C)cc1C (stereo not given) | 0.0178 | 0.0335 µM | 3.55 | 5.72 | 0.431
COP(=O)(Nc1nn(-c2ccc(-c3cc4nccc(N)n4n3)cc2)cc1C(=O)O)c1ccc(C)cc1C (stereo not given) | 0.001 | 0.0163 µM | 0.335 | 0.335 | 0.0753
COP(=O)(Nc1nn(-c2ccc(-c3cc4nc(C)cc(N)n4n3)cc2)cc1C(=O)O)c1ccc(C)cc1C (stereo not given) | 0.0004 | 0.0099 µM and 0.0185 µM and 0.0127 µM | 0.254 | 0.181 | 0.0257

Where “and” joins values, the source holds several entries; their conditions need not be identical. Identical values can stand only once.
